Experimental data: PubChem BioAssay AID2606 (The Scripps Research Institute Molecular Screening Center, 2010)
The entries are a selection whose mix differs from that of the whole data set. Calls of active or inactive are those of the source. Rule as the data show it: active = inhibition above about 38%; inactive = the rest.

By UniProt entry, the sequences of proteins in these tests, tags left out.
UniProt P9WHR9, whole entry: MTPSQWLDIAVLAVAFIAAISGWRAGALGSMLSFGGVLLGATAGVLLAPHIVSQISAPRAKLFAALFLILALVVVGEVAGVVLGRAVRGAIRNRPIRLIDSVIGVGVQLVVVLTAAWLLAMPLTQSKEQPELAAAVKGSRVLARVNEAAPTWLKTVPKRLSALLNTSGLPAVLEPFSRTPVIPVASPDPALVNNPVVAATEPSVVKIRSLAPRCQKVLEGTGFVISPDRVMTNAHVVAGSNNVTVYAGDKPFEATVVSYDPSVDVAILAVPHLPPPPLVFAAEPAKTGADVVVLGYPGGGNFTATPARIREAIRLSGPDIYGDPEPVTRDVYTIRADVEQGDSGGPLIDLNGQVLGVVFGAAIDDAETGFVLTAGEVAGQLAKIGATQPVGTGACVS

Target: Serine protease Rv3671c (Mycobacterium tuberculosis (strain ATCC 25618 / H37Rv)) (UniProt P9WHR9)
Experiment: Rv3671c serine protease inhibitors, primary screen, biochemical, fluorescence polarization, M. tuberculosis H37Rv (AID 2606);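 also: extracellular domain of Rv3671c used as enzyme; 0% = enzyme with DMSO and 100% = no enzyme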
Details: at 5.96 µM; active compounds read high

| Compound | inhibition |
| --- | --- |
| CN1CCC(Nc2ccc(Cl)cc2)CC1 | inactive: 6.22% |
| CCCOc1ccc(C)cc1CN(CCCl)CCCl | inactive: 9.37% |
| COc1cc(OC)cc(C(=O)NCC2(N3CCOCC3)CCCCC2)c1 | inactive: 0.38% |
| COc1cccc(C(=O)N(c2cc(C)cc(C)c2)C2CCN(C(=O)OC(C)(C)C)CC2)c1 | inactive: -4.66% |
| CCC(CO)(C(=O)OC1CN2CCC1CC2)c1ccccc1 (stereo not drawn) | inactive: 2.79% |
| O=C(O)C1(Nc2ccccc2)CCN(Cc2ccccc2)CC1 | inactive: -8.87% |
| CC(C)(C)OC(=O)N1CCC(Nc2ccccc2)CC1 | inactive: 2.86% |
| CCCOc1ccc(C(=O)NCC2(N(C)C)CCCCC2)cc1 | inactive: -4.79% |
| CN1CCC(Nc2ccc(F)c(Cl)c2)CC1 | inactive: -5.55% |
| CCOc1ncccc1C(=O)NCC1(N2CCOCC2)CCCCC1 | inactive: 9.01% |
| CN(C)c1ccc(C(=O)NCC2(N3CCCCC3)CCCCC2)cc1 | inactive: -0.3% |
| O=C(NCC1(N2CCCCC2)CCCCC1)c1ccco1 | inactive: -12.1% |
| CCN1CCC(Nc2cccc(F)c2)CC1 | inactive: -5.78% |
| Fc1ccccc1NC1CCN(Cc2ccccc2)CC1 | inactive: -0.92% |
| Cc1ccc(C(=O)NCC2(N3CCCCC3)CCCCC2)o1 | inactive: 11.8% |
| COc1cc(OC)cc(C(=O)NCC2(N3CCCCC3)CCCCC2)c1 | inactive: -7.11% |
| CN(C)C1(CNC(=O)c2cccc(C#N)c2)CCCCC1 | inactive: 3.65% |
| CCCN1CCC(Nc2cc(OC)cc(OC)c2)CC1 | inactive: -0.4% |
| c1ccc(CN2CCC(Nc3ccccc3)CC2)cc1 | inactive: 8.41% |
| N#Cc1ccc(C(=O)NCC2(N3CCCCC3)CCCCC2)cc1 | inactive: 3.38% |
| CC(C)(C)OC(=O)N1CCC(N(C(=O)c2ccccc2)c2ccc(Cl)cc2)CC1 | inactive: -6.52% |

| Compound | inhibition |
| --- | --- |
| O=C(OC1CN2CCC1CC2)C1c2ccccc2C=Cc2ccccc21 (stereo not drawn) | inactive: -3.01% |
| CCc1cc(C(=O)NCC2(N3CCCCC3)CCCCC2)sc1C | inactive: -5.1% |
| CCOC(=O)N1CCC(Nc2ccc(C)cc2)CC1 | inactive: 1.17% |
| N/C(=N\O)c1c(N)no[n+]1[O-] | inactive: -4.56% |
| COc1ccc(C(=O)NCC2(N3CCOCC3)CCCCC2)cc1OC | inactive: 8.3% |
| COc1cc(C(=O)NCC2(N3CCOCC3)CCCCC2)cc(OC)c1C | inactive: 8.7% |
| O=C(NCC1(N2CCOCC2)CCCCC1)c1cc(Br)ccc1Cl | inactive: -0.63% |
| O=C(NCC1(N2CCCCC2)CCCCC1)c1cncc(Br)c1 | inactive: -6.67% |
| CN1CCC(Nc2cccc(F)c2)CC1 | inactive: -8.19% |
| O=C(NCC1(N2CCOCC2)CCCCC1)c1cc(F)c(F)cc1Cl | inactive: -3.59% |
| COc1cc(OC)c(C(=O)NCC2(N(C)C)CCCCC2)cc1OC | inactive: 11.9% |
| CC(C)c1ccc(NC2CCN(C(=O)OC(C)(C)C)CC2)cc1 | inactive: 4.49% |
| CN(C)c1cccc(C(=O)NCC2(N3CCCCC3)CCCCC2)c1 | inactive: 4.38% |
| COc1ccc(CN(CCCl)CCCl)cc1Cl | inactive: -3.01% |
| COc1cc(C(=O)NCC2(N3CCCCC3)CCCCC2)ccc1OC(F)F | inactive: -14.2% |
| O=C(NCC1(N2CCOCC2)CCCCC1)c1cc(=O)[nH]c2ccccc12 | inactive: -11.2% |
| CN1CCN(CCOC(=O)C(O)(c2ccccc2)c2ccccc2)CC1 | inactive: -3.92% |
| COc1ccc(NC2CCN(C(=O)OC(C)(C)C)CC2)cc1 | inactive: -6.53% |
| O=C(NCC1(N2CCCCC2)CCCCC1)c1cccc(C(F)(F)F)c1 | inactive: -17% |
| N#CC1(Nc2ccccc2)CCN(CCc2ccccc2)CC1 | inactive: -0.29% |
| CCN1CCC(Nc2ccc(Cl)cc2)CC1 | inactive: -1.17% |

| Compound | inhibition |
| --- | --- |
| O=C(NCC1(N2CCCCC2)CCCCC1)c1cccc([N+](=O)[O-])c1 | inactive: -0.48% |
| O=C(NCC1(N2CCCCC2)CCCCC1)c1ccc(OC(F)F)cc1 | inactive: 0.85% |
| Cc1ccc(OCC(C)C)c(CN(CCCl)CCCl)c1 | inactive: 7.42% |
| CCOC(=O)N1CCC(Nc2cccc(C)c2)CC1 | inactive: 3.33% |
| COc1ccc(NC2CCN(CCc3ccccc3)CC2)c(OC)c1 | inactive: 4.46% |
| O=C(NCC1(N2CCCCC2)CCCCC1)c1ccc(F)cc1 | inactive: 4.07% |
| CCOc1ccc(C)cc1CN(CCCl)CCCl | inactive: 4.62% |
| COc1ccc(Cl)cc1C(=O)NCC1(N2CCOCC2)CCCCC1 | inactive: 6.18% |
| O=C(OC1CN2CCC1CC2)C1c2ccccc2Oc2ccccc21 (stereo not drawn) | inactive: -1.14% |
| N#CC1(Nc2ccccc2)CCN(Cc2ccccc2)CC1 | inactive: 3.5% |
| O=C(NCC1(N2CCCCC2)CCCCC1)c1ccc(Cl)s1 | inactive: -1.83% |
| CCOC(=O)N1CCC(Nc2ccc(OC)cc2)CC1 | inactive: -8.71% |
| Cc1cc(C)cc(N(C(=O)c2ccccc2)C2CCN(C(=O)OC(C)(C)C)CC2)c1 | inactive: -18.7% |
| O=C(NCC1(N2CCCCC2)CCCCC1)c1ccc(Cl)nc1 | inactive: -15.1% |
| O=C(NCC1(N2CCOCC2)CCCCC1)c1cc2ccccc2o1 | inactive: -8.06% |
| CSc1ccccc1C(=O)NCC1(N2CCCCC2)CCCCC1 | inactive: -7.19% |
| COc1ccc(C(=O)NCC2(N3CCCCC3)CCCCC2)c(OC)c1OC | inactive: -2.21% |
| CC(C)(C)OC(=O)N1CCC(N(C(=O)c2ccccc2)c2ccc(F)cc2)CC1 | inactive: -0.72% |
| COc1ccc(C(=O)NCC2(N3CCCCC3)CCCCC2)cc1 | inactive: 4.47% |
| O=C(NCC1(N2CCCCC2)CCCCC1)c1cccs1 | inactive: 2.83% |
| O=C(NCC1(N2CCCCC2)CCCCC1)c1ccc(=O)[nH]c1 | inactive: 0.1% |
